Measurements as given in patent US20100093620A1, “TYROSINE-RICH CONOPEPTIDES” (published 2010).

Chains of the proteins cited; added tags and fusions are not shown.
UniProt P22459, whole entry, looked up: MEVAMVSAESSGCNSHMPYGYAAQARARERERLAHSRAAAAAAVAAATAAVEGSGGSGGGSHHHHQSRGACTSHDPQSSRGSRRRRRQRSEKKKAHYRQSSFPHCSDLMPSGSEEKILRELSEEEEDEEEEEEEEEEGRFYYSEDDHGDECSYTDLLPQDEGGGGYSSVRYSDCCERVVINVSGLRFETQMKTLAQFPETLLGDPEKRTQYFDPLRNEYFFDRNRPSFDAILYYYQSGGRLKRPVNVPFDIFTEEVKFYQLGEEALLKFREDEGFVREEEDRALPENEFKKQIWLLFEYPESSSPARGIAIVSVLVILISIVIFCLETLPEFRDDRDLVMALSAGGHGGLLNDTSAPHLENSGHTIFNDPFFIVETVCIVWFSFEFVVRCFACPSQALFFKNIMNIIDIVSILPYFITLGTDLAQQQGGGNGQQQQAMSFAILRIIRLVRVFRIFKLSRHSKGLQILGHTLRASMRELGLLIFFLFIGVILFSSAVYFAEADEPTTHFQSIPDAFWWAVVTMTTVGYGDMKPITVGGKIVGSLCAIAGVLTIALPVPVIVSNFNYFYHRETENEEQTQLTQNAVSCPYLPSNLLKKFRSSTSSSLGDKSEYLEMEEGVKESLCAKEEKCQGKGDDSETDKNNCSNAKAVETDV
UniProt P16389, whole entry, looked up: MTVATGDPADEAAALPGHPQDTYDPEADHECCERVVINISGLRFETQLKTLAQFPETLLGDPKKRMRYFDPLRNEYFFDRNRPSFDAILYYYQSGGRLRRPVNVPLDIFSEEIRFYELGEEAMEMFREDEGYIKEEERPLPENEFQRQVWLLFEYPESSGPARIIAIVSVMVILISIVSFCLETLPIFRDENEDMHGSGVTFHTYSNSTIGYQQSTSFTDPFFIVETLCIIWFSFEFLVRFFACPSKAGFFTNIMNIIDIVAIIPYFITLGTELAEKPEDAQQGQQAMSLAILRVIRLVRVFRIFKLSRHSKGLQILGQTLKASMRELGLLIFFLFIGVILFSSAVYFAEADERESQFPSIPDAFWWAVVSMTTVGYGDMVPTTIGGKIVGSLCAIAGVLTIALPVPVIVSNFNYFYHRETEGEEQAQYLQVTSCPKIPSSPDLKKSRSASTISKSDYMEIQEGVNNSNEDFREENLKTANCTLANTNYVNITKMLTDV
UniProt P22001, whole entry, looked up: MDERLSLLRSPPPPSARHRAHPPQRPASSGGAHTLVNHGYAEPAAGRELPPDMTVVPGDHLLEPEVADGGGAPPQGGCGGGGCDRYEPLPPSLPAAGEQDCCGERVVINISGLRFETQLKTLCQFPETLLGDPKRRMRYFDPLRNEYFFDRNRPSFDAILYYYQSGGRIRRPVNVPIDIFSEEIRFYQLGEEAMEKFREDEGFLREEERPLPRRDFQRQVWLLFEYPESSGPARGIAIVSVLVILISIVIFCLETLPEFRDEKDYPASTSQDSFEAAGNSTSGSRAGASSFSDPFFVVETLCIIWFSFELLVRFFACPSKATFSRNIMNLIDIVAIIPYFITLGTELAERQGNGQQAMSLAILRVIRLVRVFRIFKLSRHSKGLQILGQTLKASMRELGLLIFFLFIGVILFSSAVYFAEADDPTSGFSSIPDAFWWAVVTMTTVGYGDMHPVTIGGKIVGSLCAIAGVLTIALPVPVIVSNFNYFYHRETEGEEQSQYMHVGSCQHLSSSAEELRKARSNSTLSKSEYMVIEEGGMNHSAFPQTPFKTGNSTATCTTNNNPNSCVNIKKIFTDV
UniProt P17658, whole entry, looked up: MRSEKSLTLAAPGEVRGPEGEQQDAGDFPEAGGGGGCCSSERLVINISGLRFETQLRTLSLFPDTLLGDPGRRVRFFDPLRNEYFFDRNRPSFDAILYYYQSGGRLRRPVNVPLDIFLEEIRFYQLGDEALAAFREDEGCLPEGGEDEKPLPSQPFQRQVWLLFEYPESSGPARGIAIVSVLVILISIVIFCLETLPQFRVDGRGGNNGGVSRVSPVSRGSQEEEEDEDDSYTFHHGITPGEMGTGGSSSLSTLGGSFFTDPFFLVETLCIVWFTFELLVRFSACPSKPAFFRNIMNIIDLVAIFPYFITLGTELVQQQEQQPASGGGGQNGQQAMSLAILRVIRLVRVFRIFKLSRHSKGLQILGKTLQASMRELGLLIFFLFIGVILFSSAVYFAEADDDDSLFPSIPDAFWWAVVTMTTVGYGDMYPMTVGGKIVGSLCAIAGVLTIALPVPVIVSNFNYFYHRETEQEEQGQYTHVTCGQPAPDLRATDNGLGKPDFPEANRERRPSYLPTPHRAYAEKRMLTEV
UniProt P22460, whole entry, looked up: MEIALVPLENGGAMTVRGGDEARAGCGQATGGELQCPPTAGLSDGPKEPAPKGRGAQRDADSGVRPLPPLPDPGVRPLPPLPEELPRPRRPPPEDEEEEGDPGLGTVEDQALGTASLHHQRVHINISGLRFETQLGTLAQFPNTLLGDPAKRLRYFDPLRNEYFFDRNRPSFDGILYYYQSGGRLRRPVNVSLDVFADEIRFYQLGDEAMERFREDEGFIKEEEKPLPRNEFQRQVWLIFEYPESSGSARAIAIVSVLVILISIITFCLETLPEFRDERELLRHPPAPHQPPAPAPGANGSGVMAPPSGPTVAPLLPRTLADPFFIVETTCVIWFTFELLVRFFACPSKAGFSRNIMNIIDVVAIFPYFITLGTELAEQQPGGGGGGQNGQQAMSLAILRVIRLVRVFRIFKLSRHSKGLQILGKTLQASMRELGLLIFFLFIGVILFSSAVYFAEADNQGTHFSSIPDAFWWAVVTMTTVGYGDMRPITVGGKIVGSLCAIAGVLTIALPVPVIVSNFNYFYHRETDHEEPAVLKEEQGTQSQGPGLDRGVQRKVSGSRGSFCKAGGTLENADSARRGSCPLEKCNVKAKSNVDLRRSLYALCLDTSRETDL

Legend:
Kv1.4 = Kv1.4 (Homo sapiens, UniProt P22459); settings: read-out: IC50 (95% Confidence Interval) Kv1.4; unskinned Xenopus oocytes
Kv1.2 = Kv1.2 (Homo sapiens, UniProt P16389); settings: for IC50: read-out: IC50 (95% Confidence Interval) Kv1.2, unskinned Xenopus oocytes
C. elegans = assay: Microinjection into the pseudocoelomic region of C. elegans; settings: ˜10 pmol per worm
Kv1.3 = Kv1.3 (Homo sapiens, UniProt P22001); settings: read-out: IC50 (95% Confidence Interval) Kv1.3; unskinned Xenopus oocytes
Kv1.6 [1] = target: T1, Kv1.6 (Homo sapiens, UniProt P17658); assay: Initial screening on channels expressed in skinned Xenopus oocytes; settings: 1 μM
Kv1.5 = Kv1.5 (Homo sapiens, UniProt P22460); settings: read-out: IC50 (95% Confidence Interval) Kv1.5; unskinned Xenopus oocytes
Kv1.6 [2] = target: T1, Kv1.6
mice (Swiss-Webster) = assay: Intracranial injection in mice, mouse-drop assay
[3] = tested on: noradrenaline- and ATP-mediated responses of rat prostatic vas deferens; settings: 10 μM
[4] = ratio of IC50 values versus CPY-Fe1

| SMILES | IC50 (Kv1.4) | IC50 (Kv1.2) | duration of partial paralysis (C. elegans) | worms with partial paralysis (C. elegans) | IC50 (Kv1.3) | activity on Kv1.6 (Kv1.6 [1]) | IC50 (Kv1.5) | IC50 (Kv1.6 [2]) | mice responding with mild to moderate seizures, mouse-drop assay (mice (Swiss-Webster); 5 nmol, intracranial) | outcome in mouse-drop assay (mice (Swiss-Webster); 20 nmol injected per mouse, intracranial) | symptoms after intracranial injection (mice (Swiss-Webster); approximately 0.7 nmol of peptide per gram of mouse) | duration of seizure after loud acoustic input (mice (Swiss-Webster); ˜1.5 nmol of peptide per gram of mouse, intracranial, one mouse) | effect on noradrenaline- and ATP-mediated contractile responses [3] | more active than CPY-Fe1 on Kv1.2 (Kv1.2; [4]) | selectivity within the Kv1 subfamily (Kv1.6 [2]) | more active than CPY-Fe1 on Kv1.6 (Kv1.6 [2]; [4]) | more potent on Kv1.6 than pl14a (Kv1.6 [2]; versus pl14a (κJ-conotoxin PIXIVA), from the same venom) |
| --- | --- | --- | --- | --- | --- | --- | --- | --- | --- | --- | --- | --- | --- | --- | --- | --- | --- |
| CC[C@H](C)[C@H](NC(=O)[C@H](Cc1c[nH]cn1)NC(=O)[C@@H](NC(=O)[C@H](Cc1ccc(O)cc1)NC(=O)[C@H](Cc1ccc(O)cc1)NC(=O)[C@H](Cc1ccc(O)cc1)NC(=O)[C@@H]1CCCN1C(=O)[C@H](CCC(N)=O)NC(=O)[C@H](CCCCN)NC(=O)[C@H](Cc1c[nH]cn1)NC(=O)[C@H](CC(C)C)NC(=O)[C@H](Cc1ccccc1)NC(=O)[C@H](CCCNC(=N)N)NC(=O)[C@@H](NC(=O)[C@H](Cc1ccccc1)NC(=O)[C@H](Cc1ccc(O)cc1)NC(=O)[C@H](CCCNC(=N)N)NC(=O)[C@H](Cc1c[nH]c2ccccc12)NC(=O)[C@H](CC(C)C)NC(=O)[C@H](CCCNC(=N)N)NC(=O)[C@H](Cc1ccc(O)cc1)NC(=O)[C@H](Cc1ccc(O)cc1)NC(=O)[C@H](CO)NC(=O)[C@H](Cc1ccccc1)NC(=O)[C@@H]1CCCN1C(=O)[C@H](Cc1ccc(O)cc1)NC(=O)[C@H](CC(C)C)NC(=O)[C@H](Cc1ccc(O)cc1)NC(=O)[C@@H](NC(=O)CN)[C@@H](C)O)[C@@H](C)O)C(C)C)C(=O)O | > 50 µM | > 30 µM | 20 min | 4 out of 4 | > 50 µM | active | > 50 µM | 8.8 µM | approximately 50% | most of the mice developed severe seizures and died | mild symptoms | 30 s | did not show any effect | – | – | – | – |
| CC[C@H](C)[C@H](NC(=O)[C@H](Cc1ccc(O)cc1)NC(=O)[C@H](Cc1ccc(O)cc1)NC(=O)[C@@H](NC(=O)[C@@H]1CCCN1C(=O)[C@H](Cc1ccc(O)cc1)NC(=O)[C@H](CCCNC(=N)N)NC(=O)[C@H](Cc1c[nH]cn1)NC(=O)[C@H](CC(C)C)NC(=O)[C@H](Cc1ccccc1)NC(=O)[C@H](CCCNC(=N)N)NC(=O)[C@@H](NC(=O)[C@H](CC(C)C)NC(=O)[C@H](Cc1ccc(O)cc1)NC(=O)[C@H](CCCNC(=N)N)NC(=O)[C@H](Cc1ccc(O)cc1)NC(=O)[C@H](CC(C)C)NC(=O)[C@@H](NC(=O)[C@H](Cc1ccc(O)cc1)NC(=O)[C@H](Cc1ccc(O)cc1)NC(=O)[C@H](CCC(N)=O)NC(=O)[C@H](Cc1ccccc1)NC(=O)[C@@H]1CCCN1C(=O)[C@H](Cc1c[nH]cn1)NC(=O)[C@H](CC(C)C)NC(=O)[C@H](Cc1ccccc1)NC(=O)[C@H](CCCNC(=N)N)NC(=O)[C@H](C)N)[C@@H](C)O)[C@@H](C)O)[C@@H](C)CC)C(=O)N[C@@H](CCCNC(=N)N)C(=O)N[C@@H](Cc1ccc(O)cc1)C(=O)O | > 50 µM | 2 µM | – | – | > 50 µM | – | > 50 µM | 0.17 µM | – | – | – | – | – | > 15 fold | highly selective for the Kv1.6 subtype | 50 fold | 18 fold |
